Target: WT Spike (SARS-CoV2, UniProt P0DTC2 16-1213)
Assay: biosensor kinetics; scFv-Fc loaded at 1 ug/ml, spike as analyte at 48.3 nM

B1: Ab 38 (scFv, V domains shown)
VH: QVTLKESGPTLVKPTQTLTLTCTFSGFSLTTSGVSVGWIRQPPGKALEWLALIHWDDDKRYSPSLRSRLTITRDTSKNQVVLTVTDMDPADTGTYYCASFIMTVYAEYFEDWGQGTLVTVSS
VL: EIVLTQSPATLSVSPGERATLSCRASQSVSSNLAWYQQKPGQAPRLLMYDVSTRATGIPARFSGSGSGTEFSLTISSLQSEDFAVYYCQQRGAWPLTFGGGTKVEIK
notes: also called Ab 38 scFv-Fc
With B1 the Response was 0.274.

B2: S1-RBD-R3-T1-F9 Ab (Ab_39) (scFv, V domains shown)
VH: QVTLKESGPTLVKPTQTLTLTCTLSGVSLDTIGMRVSWIRQPPGKALEWLARIDWDDDKFYSTALKTRLTISKDTSKNQVVFTMTSMDPVDTATYYCARSGLLYDLDVWGRGTLVTVSS
VL: QSVVTQPPSVSGAPGQRVTISCTGSDSDIGANFVQWYQQLPGTAPKLLIWRNTNRPSGVPDRFSASKSGTSASLAITGLQAEDEADYFCQSYDSSLSAYVFGGGTKVTVL
notes: also called Ab 39 scFv-Fc
Work on B2 yielded a Response of 0.369.

— patent publication US20230374114A1, “Coronavirus antibodies and methods of use thereof” (Dana-Farber, published 2023)
